For the assay, the target named is T1, Dimer of Gag-Pol polyprotein [501-599,Q508K,L534I,L564I,C568A,C596A] (Human immunodeficiency virus 1, UniProt P03367, C568A/C596A/L534I/L564I/Q508K).
T1 construct: 501-599
The assay is described as follows: Enzyme Inhibition Assay (Ki) and Antiviral Activity Assay (EC50/IC50). The note with it: pH 6.4; 25 °C.

The structures appear in SMILES notation.

Turning to `COc1ccc2c(c1)OCCCCN(C[C@@H](O)[C@H](Cc1ccccc1)NC(=O)O[C@H]1CO[C@H]3OCC[C@H]31)S2(=O)=O` [cyclic compound, 15h], the EC50 worked out at 77 nM.

In general, EC50 refers to the concentration needed to bring the measured effect to its halfway point.

The values are drawn from BindingDB's records for doi:10.1021/jm900695w (Purdue University, 2009).
